The target of this test is Staphylococcus aureus ribosomal protein L27 with C-terminal Myc and His6 tags (Staphylococcus aureus, UniProt Q2FXT0 1-94).

B1: Staphylococcus aureus Prp C34A, untagged (enzyme)
chain: MITVDITVNDEGKVTDVIMDGHADHGEYGHDIVAAGASAVLFGSVNAIIGLTSERPDINYDDNGGHFHIRSVDTNNDEAQLILQTMLVSLQTIEEEYNENIRLNYK
On to B1, for which the binding result is “binds”.

B2: Staphylococcus aureus Prp N46A, untagged (enzyme)
chain: MITVDITVNDEGKVTDVIMDGHADHGEYGHDIVCAGASAVLFGSVAAIIGLTSERPDINYDDNGGHFHIRSVDTNNDEAQLILQTMLVSLQTIEEEYNENIRLNYK
For B2, the binding result is on record as “binds”.

The record behind these values is patent US20170049848A1, “Target for Firmicutes and Related Bacteria: The PRP Protease” (VIRGINIA COMMONWEALTH UNIVERSITY, published 2017).
